Patent US7129332

Assays:
[1] = target: EGFRvIII (mutant epidermal growth factor receptor) on NR6M cells (human) (UniProt P00533); assay: cell-based or functional assay
[2] = target: EGFRvIII peptide (…-biotin); assay: SPR (BIAcore), biotinylated peptide on streptavidin chip, immunotoxin injected

| Substance | IC50, cytotoxicity (inhibition of [3H]-leucine incorporation) on NR6M cells [1] [ng/mL] | Kd [2] [nM] |
| --- | --- | --- |
| MR1 (VH S98P-T99Y) VLCDR3 mutant F92L immunotoxin (scFv-PE38) (from UniProt P11439 278-389; P11439 406-638) | 5.5 | 4 |
| MR1 (VH S98P-T99Y) VLCDR3 mutant F92M immunotoxin (scFv-PE38) (from UniProt P11439 278-389; P11439 406-638) | 9 | 6 |
| MR1 (VH S98P-T99Y) VLCDR3 mutant F92R immunotoxin (scFv-PE38) (from UniProt P11439 278-389; P11439 406-638) | 6 | 9 |
| MR1 (VH S98P-T99Y) VLCDR3 mutant F92S immunotoxin (scFv-PE38) (from UniProt P11439 278-389; P11439 406-638) | 15 | 22 |
| MR1 VHCDR3 mutant P98-F99 immunotoxin (scFv-PE38) (from UniProt P11439 278-389; P11439 406-638) | 6 | 20 |
| MR1 VHCDR3 mutant P98-I99 immunotoxin (scFv-PE38) (from UniProt P11439 278-389; P11439 406-638) | 4.5 | 5 |
| MR1 VHCDR3 mutant P98-N99 immunotoxin (scFv-PE38) (from UniProt P11439 278-389; P11439 406-638) | 4.5 |  |
| MR1 VHCDR3 mutant P98-S99 immunotoxin (scFv-PE38) (from UniProt P11439 278-389; P11439 406-638) | 8 |  |
| MR1 VHCDR3 mutant P98-T99 immunotoxin (scFv-PE38) (from UniProt P11439 278-389; P11439 406-638) | 8 | 8 |
| MR1 VHCDR3 mutant P98-V99 immunotoxin (scFv-PE38) (from UniProt P11439 278-389; P11439 406-638) | 6.5 |  |
| MR1 VHCDR3 mutant P98-W99 immunotoxin (scFv-PE38) (from UniProt P11439 278-389; P11439 406-638) | 4.5 | 4 |
| MR1 VHCDR3 mutant S98-W99 immunotoxin (scFv-PE38) (from UniProt P11439 278-389; P11439 406-638) | 8 |  |
| MR1 VHCDR3 mutant W98-F99 immunotoxin (scFv-PE38) (from UniProt P11439 278-389; P11439 406-638) | 8 |  |
